Assay results: US20230340081A1 (Hoffmann-La Roche, published 2023)

Legend:
Assay in all cases: flow cytometry, S-HBs-transfected 293-F cells
[1] = molecular target: genotype D S-HBs mutant protein M133T (hepatitis B virus genotype D)
[2] = molecular target: genotype D S-HBs mutant protein G145R (hepatitis B virus genotype D)
[3] = molecular target: genotype D S-HBs mutant protein Y134V (hepatitis B virus genotype D)
[4] = molecular target: genotype D S-HBs mutant protein T126A (hepatitis B virus genotype D)
[5] = molecular target: genotype D S-HBs mutant protein N146S (hepatitis B virus genotype D)

B1: Bv6.172 (antibody)
heavy: EVQLVQSGAAVRKPGESLRISCQASGFSFTNYWITWVRQRPGKGLEWMGRIDTRDSYTNYSPSFQGHVTISIDRSINTAYLQWSSLKASDTAMYYCARLSTTYPLNYYGMDVWGQGTTVTVSSASTKGPSVFPLAPSSKSTSGGTAALGCLVKDYFPEPVTVSWNSGALTSGVHTFPAVLQSSGLYSLSSVVTVPSSSLGTQTYICNVNHKPSNTKVDKRV[human IgG1 Fc not spelt out]
light: QSVLTQPPSVSGTPGQRVTISCTGSSSNIGANYDVNWYQQLPGTAPKVLIYGNTNRPSGVPDRFSGSKSGTSASLAITGLQAEDEADYYCQSYDTSLSGWVFGGGTKLTVLGQPKAAPSVTLFPPSSEELQANKATLVCLISDFYPGAVTVAWKADSSPVKAGVETTTPSKQSNNKYAASSYLSLTPEQWKSHRSYSCQVTHEGSTVEKTVAPTECS
Question: With B1 as the binder, how does the “% of bound S-HBs-expressing cells” value [1] read?
Answer: 71%

Question: And the “% of bound S-HBs-expressing cells” value [2]?
Answer: 24%

Question: And the “% of bound S-HBs-expressing cells” value [3]?
Answer: 69%

Question: What about the “% of bound S-HBs-expressing cells” value [4] of the same binder?
Answer: 75%

Question: What about the “% of bound S-HBs-expressing cells” value [5] of the same binder?
Answer: 77%
